Anti-infective test results gathered from many reports (values: NIAID ChemDB through PubChem).

All rows: growth or infection tests; agent: Aspergillus niger; method: agar diffusion; read-out: zone

Blank or dashed fields: not listed here.

{"SMILES": "N#C/C(=C\\c1ccccc1[N+](=O)[O-])c1ccc([N+](=O)[O-])cc1", "dose": "100 µg", "result": "0 mm"}
{"SMILES": "S=c1nc(-c2cc3ccccc3[nH]2)[nH][nH]1", "dose": "5000 µg/mL", "result": "0 mm"}
{"SMILES": "CC1(C)CC(=O)C2=C(C1)OC1=C(C(=O)CC(C)(C)C1)C2c1cccc(C2C3=C(CC(C)(C)CC3=O)OC3=C2C(=O)CC(C)(C)C3)c1", "strain or isolate": "ATCC 10949", "dose": "140 µg/disc", "result": "0 mm"}
{"SMILES": "NCCCNc1ccnc2cc(Cl)ccc12", "dose": "200 µg/mL", "result": "44 mm"}
{"SMILES": "CCCCNCc1cc2ccccc2nc1Cl", "strain or isolate": "MTCC 281", "dose": "200 µg/mL", "result": "9.47 mm"}
{"SMILES": "COc1ccc(/C=C2/OC3(COC(=O)N3)N(CCCNc3ccnc4cc(Cl)ccc34)C2=O)cc1", "dose": "200 µg/mL", "result": "14 mm"}
{"SMILES": "CSC1=NC(c2ccccc2[N+](=O)[O-])C(C#N)=C(N)N1", "strain or isolate": "MTCC 282", "dose": "50 µg/mL", "result": "14 mm"}
{"SMILES": "Cc1ccc2c(c1)C(C1SCC(=O)N1NC(=O)N1c3ccccc3C=Cc3ccccc31)C(c1ccccc1)=N2", "strain or isolate": "MTCC 281", "dose": "750 µg/mL", "result": "2 mm"}
{"SMILES": "CC(=O)Nc1nc(C)c(-c2n[nH]c(=S)n2N2C(=O)CSC2c2ccc(F)cc2)s1", "dose": "100 µg/mL", "result": "12 mm"}
{"SMILES": "O=C1CC(c2ccccc2)CC2=C1C(c1cccc(C3C4=C(CC(c5ccccc5)CC4=O)OC4=C3C(=O)CC(c3ccccc3)C4)c1)C1=C(CC(c3ccccc3)CC1=O)O2", "strain or isolate": "ATCC 10949", "dose": "20 µg/mL", "result": "0 mm"}
{"SMILES": "N#C/C(=C\\c1ccc([N+](=O)[O-])cc1)c1ccccc1", "dose": "100 µg", "result": "0 mm"}
{"SMILES": "COc1ccc(C2CC(=O)C3=C(C2)OC2=C(C(=O)CC(c4ccc(OC)c(OC)c4)C2)C3c2cccc(C3C4=C(CC(c5ccc(OC)c(OC)c5)CC4=O)OC4=C3C(=O)CC(c3ccc(OC)c(OC)c3)C4)c2)cc1OC", "strain or isolate": "ATCC 10949", "dose": "40 µg/disc", "result": "0 mm"}
{"SMILES": "CSC1=NC(c2ccccc2Cl)C(C#N)=C(N)N1", "strain or isolate": "MTCC 282", "dose": "50 µg/mL", "result": "15 mm"}
{"SMILES": "CC(=O)Nc1nc(C)c(-c2n[nH]c(=S)n2N2C(=O)CSC2c2cccc([N+](=O)[O-])c2)s1", "dose": "100 µg/mL", "result": "13 mm"}
{"SMILES": "O=C1CCCC2=C1C(c1cccc(C3C4=C(CCCC4=O)OC4=C3C(=O)CCC4)c1)C1=C(CCCC1=O)O2", "strain or isolate": "ATCC 10949", "dose": "140 µg/disc", "result": "7 mm"}
{"SMILES": "CS(=O)(=O)c1nc(N)c(C#N)c(-c2ccccc2O)n1", "strain or isolate": "MTCC 282", "dose": "50 µg/mL", "result": "18 mm"}
{"SMILES": "N#C/C(=C\\c1ccccc1Cl)c1ccccc1", "dose": "100 µg", "result": "0 mm"}
{"SMILES": "Cc1cccc(NCc2cc3ccccc3nc2Cl)c1", "strain or isolate": "MTCC 281", "dose": "200 µg/mL", "result": "9.53 mm"}
{"SMILES": "O=C1NC2(CO1)O/C(=C/c1ccc(Cl)cc1)C(=O)N2CCCNc1ccnc2cc(Cl)ccc12", "dose": "200 µg/mL", "result": "17 mm"}
{"SMILES": "NNC(=O)c1cc2ccccc2[nH]1", "dose": "5000 µg/mL", "result": "0 mm"}
{"SMILES": "Cc1ccc2c(c1)C(C=NNC(=O)N1c3ccccc3C=Cc3ccccc31)C(c1ccccc1)=N2", "strain or isolate": "MTCC 281", "dose": "1000 µg/mL", "result": "14 mm"}
{"SMILES": "CN(Cc1cc2ccccc2nc1Cl)c1ccc(F)c(Cl)c1", "strain or isolate": "MTCC 281", "dose": "200 µg/mL", "result": "19.44 mm"}
{"SMILES": "COc1ccc(C2SCC(=O)N2n2c(-c3sc(NC(C)=O)nc3C)n[nH]c2=S)cc1", "dose": "100 µg/mL", "result": "9 mm"}
{"SMILES": "Clc1nc2ccccc2cc1CNc1ccc(Br)cc1", "strain or isolate": "MTCC 281", "dose": "200 µg/mL", "result": "13.66 mm"}
{"SMILES": "CC(=O)OC[C@H]1O[C@@H]([n+]2[nH]c(-c3cc4ccccc4[nH]3)nc2S[C@@H]2O[C@H](COC(C)=O)[C@@H](OC(C)=O)[C@H](OC(C)=O)[C@H]2OC(C)=O)[C@H](OC(C)=O)[C@@H](OC(C)=O)[C@@H]1OC(C)=O", "dose": "5000 µg/mL", "result": "0 mm"}
{"SMILES": "CS(=O)(=O)c1nc(N)c(C#N)c(-c2cccc([N+](=O)[O-])c2)n1", "strain or isolate": "MTCC 282", "dose": "50 µg/mL", "result": "18 mm"}
{"SMILES": "O=C1CC(c2ccccc2)CC2=C1C(c1ccc(C3C4=C(CC(c5ccccc5)CC4=O)OC4=C3C(=O)CC(c3ccccc3)C4)cc1)C1=C(CC(c3ccccc3)CC1=O)O2", "strain or isolate": "ATCC 10949", "dose": "140 µg/disc", "result": "0 mm"}
{"SMILES": "CN(C)c1ccc(/C=C(\\C#N)c2ccccc2)cc1", "dose": "100 µg", "result": "0 mm"}
{"SMILES": "COC1=CC(=O)C[C@@H](C)[C@]12Oc1c(Cl)c(OC)cc(OC)c1C2=O", "dose": "100 µg/mL", "result": "28 mm"}
{"SMILES": "O=C(NN1C(=O)CSC1C1C(c2ccccc2)=Nc2ccccc21)N1c2ccccc2C=Cc2ccccc21", "strain or isolate": "MTCC 281", "dose": "500 µg/mL", "result": "3 mm"}
{"SMILES": "N#C/C(=C\\c1ccccc1)c1ccccc1", "dose": "100 µg", "result": "0 mm"}

The last 4 rows once more:

SMILES | strain or isolate | dose | result
CN(C)c1ccc(/C=C(\C#N)c2ccccc2)cc1 | - | 100 µg | 0 mm
COC1=CC(=O)C[C@@H](C)[C@]12Oc1c(Cl)c(OC)cc(OC)c1C2=O | - | 100 µg/mL | 28 mm
O=C(NN1C(=O)CSC1C1C(c2ccccc2)=Nc2ccccc21)N1c2ccccc2C=Cc2ccccc21 | MTCC 281 | 500 µg/mL | 3 mm
N#C/C(=C\c1ccccc1)c1ccccc1 | - | 100 µg | 0 mm

Conditions beyond the fields shown may differ between rows. Zones are inhibition diameters on agar.